A mixed list of measured activities; the numbers were collected in NIAID ChemDB.

Shared fields: growth or infection tests

Percent inhibition refers to the dose given; in toxicity tests it is the harm to the cells. Blank or dashed fields: not listed here. Neighbouring rows are from separate reports. ECn: concentration that inhibits the pathogen or its effect by n%. MIC50, MIC90 and the like: level of inhibition, or share of isolates inhibited.

structure | read by | strain | species | cell line | tested at | measure | value
CCOC(=O)c1cnc(NCCCCNc2ccnc3cc(Cl)ccc23)nc1C | - | 29/10893 | Cryptococcus gattii | - | - | MIC99 | 4 µg/mL
O=S(=O)(O)c1cc(O)c2c(O)cc(S(=O)(=O)O)cc2c1 | cytopathic effect | - | Rhinovirus | Human embryonic lung cells | 50 µg/mL | inhibition | 10%
O=c1[nH]c(=O)n([C@H]2C[C@H](O)[C@@H](CO)O2)cc1/C=C/Br | plaque count | Kawaguchi | Varicella zoster virus | HELF | 0.001 µg/mL | inhibition | 0%
Cc1cc(CCCOc2c(C)cc(-c3noc(C(F)(F)F)n3)cc2C)on1 | cytopathic effect / visual reading | Isolate 42 | Rhinovirus | OHIO HELA-I | - | EC50 | 0.02 µg/mL
Cc1cc(-c2ccc(N=Nc3c(S(=O)(=O)O)cc4cc(S(=O)(=O)O)cc(N)c4c3O)c(C)c2)ccc1N=Nc1c(S(=O)(=O)O)cc2cc(S(=O)(=O)O)cc(N)c2c1O | cytopathic effect | - | Rhinovirus | Human embryonic lung cells | 5 µg/mL | inhibition | 0%
CCOC(=O)c1c(C)nc(OCCCNc2ccnc3cc(Cl)ccc23)nc1-c1ccccc1 | - | WP | Cryptococcus neoformans | - | - | MIC99 | 8 µg/mL
Nc1ccc2cc([N+](=O)[O-])cc(S(=O)(=O)[O-])c2c1 | cytopathic effect | TYPE 3 | Adenovirus | Human amnion AV3 cells | 5 µg/mL | inhibition | 0%
Oc1ccccc1N=Cc1ccccc1 | - | 5396 | Cryptococcus neoformans | - | - | MIC99 | 5.7 µg/mL
C=Cc1cn([C@@H]2O[C@H](CO)[C@@H](O)[C@@H]2O)c(=O)[nH]c1=O | plaque count | OKA | Varicella zoster virus | HELF | 1 µg/mL | inhibition | 91%
CCO/N=C/c1ccc(OCCC2CCN(c3ccc(Cl)nn3)CC2)cc1 | neutral red | 58750 (ICAM-1 receptor group 43) | Rhinovirus | KB | - | EC50 | 0.077 µM
CCC(CC)[C@H](NC(C)=O)[C@@H]1[C@H](O)[C@@H](C(=O)O)C[C@H]1N=C(N)N | - | Influenza A/Washington/05/96 (H3N2) | Influenza A virus | MDCK | - | EC50 | 0.02 µM
Nc1cc(S(=O)(=O)[O-])cc2cc(S(=O)(=O)[O-])ccc12 | cytopathic effect | - | Herpes simplex virus | Human conjunctiva cells | 10 µg/mL | inhibition | 0%
O=c1[nH]c(=O)n([C@@H]2O[C@H](CO)[C@@H](O)[C@@H]2O)cc1/C=C/Br | plaque count | Ohtomo | Varicella zoster virus | HELF | 0.001 µg/mL | inhibition | 100%
O=S(=O)([O-])c1cc(O)c2ccccc2c1 | cytopathic effect | TYPE 3 | Adenovirus | Human embryonic lung cells | 5 µg/mL | inhibition | 0%
C=CCc1ccc(O)c(OC)c1 | turbidity | 2965 | Candida glabrata | - | - | MIC90 | 500 µg/mL
CCc1cn([C@@H]2O[C@H](CO)[C@@H](O)[C@@H]2O)c(=O)[nH]c1=O | plaque count | YS | Varicella zoster virus | HELF | 1000 µg/mL | inhibition | 61%
O=C(O)c1ccc(S(=O)(=O)[O-])cc1C(=O)O | cytopathic effect | - | Herpes simplex virus | Human amnion AV3 cells | 5 µg/mL | inhibition | 0%
Oc1ccccc1N=Cc1ccc(F)cc1 | - | ATCC 32608 | Cryptococcus gattii | - | - | MIC99 | 22.6 µg/mL
O=c1[nH]c(=O)n([C@@H]2O[C@H](CO)[C@@H](O)[C@@H]2O)cc1/C=C/Cl | plaque count | Kawaguchi | Varicella zoster virus | HELF | 0.01 µg/mL | inhibition | 100%